Anti-infective test results gathered from many reports (values: NIAID ChemDB through PubChem).

All rows: tests on isolated targets; agent: HIV-1; target: Reverse transcriptase; endpoint: IC50

Blank or dashed fields: not listed here. ICn is the concentration giving n% inhibition. Lines come from different laboratories, so protocols vary.

compound | strain | changes | method | result
Nc1nc2c(ncn2[C@H]2CC[C@@H](CO)O2)c(=O)[nH]1 | - | - | - | >1000 µM
Cc1nnn2c1CO[C@H]1[C@H](O)[C@H](O)[C@@H]3Sc4ccccc4C(=O)N3[C@H]1C2 | - | - | RT activity / absorbance | 11.85 µM
CSC1SC[C@H]2C(=O)N(C)[C@@H](C(C)C)C(=O)OC[C@@H](NC(=O)c3cnc4ccccc4n3)C(=O)N[C@H](C)C(=O)N(C)[C@@H]1C(=O)N(C)[C@@H](C(C)C)C(=O)OC[C@@H](NC(=O)c1cnc3ccccc3n1)C(=O)N[C@H](C)C(=O)N2C | IIIB | - | - | 700 µM
CCC1(c2ccc(COc3cccnc3)cc2)Oc2ccccc2-n2cccc2C1=O | - | RT-Y188L | nucleotide incorporation / radiometric | 39 µM
C[C@H](Cn1cnc2c(N)ncnc21)OCP(=O)(O)O | - | - | - | >100 µM
CCCN(C)c1nc([C@@H](C)c2c(F)cccc2F)c(C)c(=O)[nH]1 | - | - | RT activity | >0.975 µM
Nc1nc2c(ncn2CCOCP(=O)(O)O)c(=O)[nH]1 | - | - | - | >100 µM
CN(CCCNc1ccc2nnn3c4ccccc4c(=O)c1c23)CCCNc1ccc2nnn3c4ccccc4c(=O)c1c23 | - | - | - | >100 µM
CCN1c2ncccc2C(=O)N(C)c2nccc(C)c21 | - | - | nucleotide incorporation | >>1 µM
Cc1c([C@H](C)c2c(F)cccc2F)nc(SC2CCCC2)[nH]c1=O | - | - | nucleotide incorporation | 0.008 µM
Cc1cccc(NC(=S)NCCc2ccc(Br)s2)n1 | - | - | - | 12.5 µM
CCc1c(CC23CC4CC(CC(C4)C2)C3)nc(SCC(=O)c2ccc(OC)cc2)[nH]c1=O | - | - | RT activity / ELISA | 3.37 µM
CC(C)=CCOc1cc(NC(=S)c2ccoc2C)ccc1Cl | - | RT-Y188L | - | >100 µM
C=C(C)CCOCc1ccc(C2(CC)Oc3ccccc3-n3cccc3C2=O)cc1 | WT | - | nucleotide incorporation / radiometric | 2.8 µM
Nc1ncnc2c1ncn2CCOCP(=O)(O)OP(=O)(O)OP(=O)(O)O | - | - | - | 5.7 µM
Cc1ccc(NC(=S)NCCc2ccc(Br)s2)nc1 | - | - | - | 0.6 µM
CCC1(c2ccc(I)cc2)Oc2ccccc2-n2cccc2C1=O | WT | - | nucleotide incorporation / radiometric | 1.2 µM
CC1(C)O[C@@H]2[C@H](O1)[C@H]1Sc3ccccc3C(=O)N1[C@H]1Cn3nncc3CO[C@@H]21 | - | - | RT activity / absorbance | 4.02 µM
Cc1cn([C@H]2CC[C@@H](OCP(=O)(O)OP(=O)(O)OP(=O)(O)O)C2)c(=O)[nH]c1=O | - | - | RT activity | 0.11 µM
Nc1nc2c(ncn2[C@H]2CC[C@@H](COP(=O)(O)OP(=O)(O)OP(=O)(O)O)O2)c(=O)[nH]1 | - | - | - | 0.075 µM
CCCN(C)C(=O)Oc1nsnc1-c1c(Cl)cccc1Cl | - | - | - | 0.29 µM
CCN1c2ccc([N+](=O)[O-])nc2N(C)C(=O)c2cccnc21 | - | - | nucleotide incorporation | >>1 µM
CCC1(c2cccc(N)c2)Oc2ccccc2-n2cccc2C1=O | WT | - | nucleotide incorporation / radiometric | 0.3 µM
O=C1c2ccccc2S[C@H]2[C@@H](O)[C@@H](O)[C@@H]3OCc4cnnn4C[C@@H]3N12 | - | - | RT activity / absorbance | 12.47 µM
C=C(Cn1cnc2c(=O)[nH]c(N)nc21)OCP(=O)(O)OP(=O)(O)OP(=O)(O)O | - | - | - | 1.9 µM
CC(=O)O[C@H]1CC[C@]2(C)C3CC=C4C5[C@@H](C)[C@H](C)CC[C@]5(C(=O)O)CC[C@@]4(C)[C@]3(C)CC[C@H]2C1(C)C | MC99 | - | RT activity / fluorescence | 210 µM
C[C@H](Cn1cnc2c(N)ncnc21)OCP(=O)(O)OP(=O)(O)OP(=O)(O)O | IIIB | - | - | 0.2 µM
S=C(NCCc1ccc(Br)s1)Nc1ccc(Cl)cn1 | - | - | - | 0.1 µM
CCN1c2cc(Br)c(Br)nc2N(C)C(=O)c2cccnc21 | - | - | nucleotide incorporation | >>1 µM
Cc1cnc(NC(=S)NCCc2ccc(Br)s2)s1 | - | - | - | 4.3 µM
CCc1nnn2c1CO[C@H]1[C@H](O)[C@H](O)[C@@H]3Sc4ccccc4C(=O)N3[C@H]1C2 | - | - | RT activity / absorbance | 10.28 µM
Cc1cn([C@H]2C=C[C@@H](COP(=O)(O)OP(=O)(O)OP(=O)(O)O)O2)c(=O)[nH]c1=O | HXB2 | - | ELISA | 0.011 µM
CC1(C)O[C@H]2[C@@H]3OCc4cnnn4C[C@@H]3N3C(=O)c4ccccc4S[C@H]3[C@H]2O1 | - | - | RT activity / absorbance | 3.01 µM
Nc1nc2c(ncn2CCOCP(=O)(O)OP(=O)(O)OP(=O)(O)O)c(=O)[nH]1 | - | - | - | 3.7 µM
Cc1nnn2c1CO[C@H]1[C@@H]3OC(C)(C)O[C@@H]3[C@@H]3Sc4ccccc4C(=O)N3[C@H]1C2 | - | - | RT activity / absorbance | 3.14 µM
Cc1cn([C@H]2CC[C@@H](OP(=O)(O)OP(=O)(O)OP(=O)(O)O)C2)c(=O)[nH]c1=O | - | - | RT activity | 7.9 µM